{"source": "paper PMC9696605", "key": {"[1]": {"test_system": "HLA-C1 in 721.221-ICP47-C1 cells", "assay": "HLA-C1 surface expression (stabilization) in 721.221-ICP47-C1 cells", "type": "cell-based, human", "conditions": "721.221-ICP47-C1 cells incubated overnight at 26 °C with peptide, gMFI, Figure 5a; pU24-6A p: 0.0012, pc: 0.004"}, "[2]": {"test_system": "KIR2DL2 positive NK cells vs 721.221-ICP47-C1 cells", "assay": "CAM cytotoxicity assay, 721.221-ICP47-C1 targets", "conditions": "NK cells from MS patients, 4 h, 26 °C, Figure 5c, MBP, pU24-6B, U24-7 p < 0.001, pU24-6A p: NS (Fisher exact test)"}}, "data": [{"smiles": "CSCC[C@H](NC(=O)[C@@H](NC(=O)[C@H](CC(=O)O)NC(=O)[C@H](CC(N)=O)NC(=O)[C@H](Cc1ccc(O)cc1)NC(=O)[C@H](CO)NC(=O)[C@@H]1CCCN1C(=O)[C@@H]1CCCN1C(=O)[C@@H]1CCCN1C(=O)[C@@H](NC(=O)[C@H](CCC(=O)O)NC(=O)[C@H](Cc1c[nH]cn1)NC(=O)[C@@H](NC(=O)[C@@H](N)CCSC)[C@@H](C)O)[C@@H](C)O)C(C)C)C(=O)N[C@@H](CC(C)C)C(=O)O", "values": [{"measurement": "HLA-C1 expression / stabilization", "setting": "[1]", "result": "lower binding affinity for HLA-C1"}, {"measurement": "Killing of 721.221-ICP47-C1 cells by KIR2DL2 positive NK cells", "setting": "[2]", "result": "induced 721.221-ICP47-C1 cell killing"}]}]}
